A mixed list of measured activities; the numbers were collected in NIAID ChemDB.

Shared fields: host cell toxicity; measure: CC50

Two numbers with a dash give a range or band.

SMILES	cells	read by	value
NC(=S)Nc1cccc(OCCCCOc2ccccc2)c1	Ava5-EG(delta4AB)SEAP	MTS	>1 µM
COC1CCCCC1NC(=O)NCCc1ccc2c(n1)NCCC2	PBMC	-	50 µM
O=C1NC(c2ccccc2OCc2ccccc2)Nc2c1c(=O)n(O)c1ncccc21	HeLa	-	<100 µM
O=C(NCCc1ccc2c(n1)NCCC2)NC1CCCCC1	PBMC	-	50 µM
O=c1cc(NC2CCN(c3ccccc3)CC2)c2cccnc2n1O	HeLa	-	0.27 µM
O=C(NCCc1ccc2c(n1)NCCC2)Nc1ccccc1OC(F)F	PBMC	-	50 µM
NC(=S)Nc1cccc(OCCCCCCc2cccc3ccccc23)c1	Ava5-EG(delta4AB)SEAP	MTS	>1 µM
CCOC(=O)CCCCCOc1cccc(CN(C(=O)c2ccc(-c3cccc4ccccc34)cc2)C(C)C)c1	HEK 293	-	>20 µM
O=c1cc(-c2cccc(CO)c2)c2cccnc2n1O	HeLa	-	<100 µM
CCOC(=O)CCCCCOc1cccc(CN(C(=O)c2ccc(-c3cccc(-c4nnc(C)o4)c3)cc2)C(C)C)c1	RAJI	-	>20 µM
COc1ncc(OC)c2c(C(=O)C(=O)N3CCN(C(=O)c4ccccc4)[C@H](C)C3)c[nH]c12	HeLa	trypan blue	>100 µM
CC(C)Oc1cccc(CCNC(=O)NCc2ccc(Cl)c(Cl)c2)n1	PBMC	-	6.9 µM
C[C@H]1CN(C(=O)C(=O)c2c[nH]c3c(-c4nccs4)ccnc23)CCN1C(=O)c1ccccc1	HeLa	trypan blue	>100 µM
S=C1NCCN1C(=S)Nc1cccc(OCCCCCc2ccccc2)c1	Ava5-EG(delta4AB)SEAP	MTS	>1 µM
CCOc1ncccc1NC(=O)NCCc1ccc2c(n1)NCCC2	PBMC	-	50 µM
S=C(Nc1cccnc1)Nc1ccc2c(c1)Cc1cc(Br)ccc1-2	Ava5-EG(delta4AB)SEAP	MTS	>1 µM
O=c1c(-c2ccccc2)c(O)c2cc(-c3ccc4ccccc4c3)cnc2n1O	HeLa	-	<100 µM
O=C(O)c1cc(-c2cccs2)nc2ccccc12	RAJI	-	>20 µM
COc1cccc(NC(=O)c2c(O)c3cccnc3n(O)c2=O)c1	HeLa	-	<100 µM
NC(=O)c1cc(-c2ncc(F)c3c(C(=O)C(=O)N4CCN(C(=O)c5ccccc5)CC4)c[nH]c23)n[nH]1	HeLa	trypan blue	>100 µM
CCOC(=O)c1c(O)c2cc(-c3cccc(-c4ccccc4)c3)cnc2n(O)c1=O	HeLa	-	<100 µM
CCOC(=O)CCCCCOc1cccc(CN(C(=O)c2ccc(-c3cccc(Oc4ccccc4)c3)cc2)C(C)C)c1	BJ	-	13.5–20 µM
O=C(NCCc1ccc2c(n1)NCCC2)Nc1cccc(Br)n1	PBMC	-	5.8 µM
NC(=S)Nc1cccc(OCCCCCOc2ccc(C(F)(F)F)cc2)c1	Ava5-EG(delta4AB)SEAP	MTS	>1 µM
O=C(NCCc1ccc2c(n1)NCCC2)Nc1ccc(Cl)cc1Cl	PBMC	-	25 µM
CCOC(=O)CCCCCOc1cccc(CN(C(=O)c2ccc(-c3cc4ccccc4n3S(=O)(=O)c3ccccc3)cc2)C(C)C)c1	HepG2	-	>20 µM
CCOC(=O)c1c(-c2ccc(-c3ccc(CN)cc3)cc2)c2cccnc2n(O)c1=O	HeLa	-	<100 µM
CCOC(=O)CCCCCOc1cccc(CN(C(=O)c2ccc(Br)cc2)C(C)C)c1	BJ	-	>20 µM
O=C(NCCc1ccc2c(n1)NCC(=O)O2)NCc1ccc(Cl)c(Cl)c1	PBMC	-	13.8 µM
O=c1cc(-c2ccn[nH]2)c2cccnc2n1O	HeLa	-	<100 µM
CN(C)c1ccc(NC(=S)NCCc2ccc3c(n2)NCCC3)c2ccccc12	PBMC	-	1.9 µM
S=C(Nc1ccc(N2CCOCC2)cc1)Nc1ccc2c(c1)Cc1cc(Br)ccc1-2	Ava5-EG(delta4AB)SEAP	MTS	>1 µM
COCc1ncn(-c2ncc(OC)c3c(C(=O)C(=O)N4CCN(C(=O)c5ccccc5)[C@H](C)C4)c[nH]c23)n1	HeLa	trypan blue	>100 µM

For reference, 2 entries again:

| SMILES | cells | read by | value |
|---|---|---|---|
| O=c1cc(-c2ccn[nH]2)c2cccnc2n1O | HeLa | - | <100 µM |
| COc1ncc(OC)c2c(C(=O)C(=O)N3CCN(C(=O)c4ccccc4)[C@H](C)C3)c[nH]c12 | HeLa | trypan blue | >100 µM |

An empty or dashed field is not shown. Lines come from different laboratories, so protocols vary. CCn: concentration that lowers growth or viability of the cells by n%.